In patent US6423376B1, “Tartaric acid diesters as biodegradable surfactants” (Air Products and Chemicals, Inc., priority 2000, dated 2002):

System: biomass seed from a Easton, Pa. Wastewater Treatment Plant
Experiment: Carbonaceous Biological Demand test (CBOD5/CBOD28), ultimate biodegradability
Details: for Percent Biodegradation at 5 days, average / Percent Biodegradation at 5 days, Trial 1 / Percent Biodegradation at 5 days, Trial 2 / Percent Biodegradation at 5 days, Trial 3: CBOD5/COD; for Percent Biodegradation at 5 days, average: average of trials 1-3; for Percent Biodegradation at 5 days, Trial 1 / Percent Biodegradation at 5 days, Trial 2 / Percent Biodegradation at 5 days, Trial 3 / Percent Biodegradation at 28 days, Trial 4 / Percent Biodegradation at 28 days, Trial 5 / Percent Biodegradation at 28 days, Trial 6: unacclimatized biomass; for Percent Biodegradation at 5 days, Trial 1 / Percent Biodegradation at 5 days, Trial 2 / Percent Biodegradation at 5 days, Trial 3: below detection limit (<8%) reported as 0; for Percent Biodegradation at 28 days, average / Percent Biodegradation at 28 days, Trial 4 / Percent Biodegradation at 28 days, Trial 5 / Percent Biodegradation at 28 days, Trial 6: CBOD28/COD; for Percent Biodegradation at 28 days, average: average of trials 4-6

SMILES | Percent Biodegradation at 5 days, average | Percent Biodegradation at 5 days, Trial 1 | Percent Biodegradation at 5 days, Trial 2 | Percent Biodegradation at 5 days, Trial 3 | Percent Biodegradation at 28 days, average | Percent Biodegradation at 28 days, Trial 4 | Percent Biodegradation at 28 days, Trial 5 | Percent Biodegradation at 28 days, Trial 6 | biodegradation after 28 days (range over trials) (28 days)
CC(C)COC(=O)C(O)C(O)C(=O)OCC(C)C (racemic) [Example 3, Diisobutyl-DL-tartrate] | 3% | 3% | 0% | 6% | 30% | 6% | 43% | 22% | 
CCC(C)OC(=O)C(O)C(O)C(=O)OC(C)CC (racemic) [Example 4, Di-sec-butyl-DL-tartrate] | 0^a 0^a 0^a 0% | 0^a 0^a 0^a 0% | 0^a 0^a 0^a 0% | 0^a 0^a 0^a 0% | 6% | 6% | 5% | 5% | 
CCCCCOC(=O)C(O)C(O)C(=O)OCCCCC (racemic) [Example 5, Dipentyl-DL-tartrate] | 9% | 6% | 6% | 17% | 59% | 58% | 63% | 56% | 
CC(C)CCOC(=O)C(O)C(O)C(=O)OCCC(C)C (racemic) [Example 6, Diisoamyl-DL-tartrate] | 13% | 17% | 8% | 13% | 58% | 64% | 56% | 53% | 
CCC(C)COC(=O)C(O)C(O)C(=O)OCC(C)CC (racemic) [Example 7, Di(2-methyl-butyl)-DL-tartrate] | 8% | 17% | 6% | 0% | 77% | 63% | 69% | 98% | 
CC(C)(C)COC(=O)C(O)C(O)C(=O)OCC(C)(C)C (racemic) [Example 8, Dineopentyl-DL-tartrate] | 0^a 0^a 0^a 0% | 0^a 0^a 0^a 0% | 0^a 0^a 0^a 0% | 0^a 0^a 0^a 0% | 16% | 15% | 8% | 24% | 8-24%
CCCCCCOC(=O)C(O)C(O)C(=O)OCCCCCC (racemic) [Example 9, Dihexyl-DL-tartrate] | 15% | 0% | 21% | 22% | 87% | 93% | 69% | 100% | 
CC(C)CC(C)OC(=O)C(O)C(O)C(=O)OC(C)CC(C)C (racemic) [Example 10, Di(4-methyl-2-pentyl)-DL-tartrate] | 0^a 0^a 0^a 0% | 0^a 0^a 0^a 0% | 0^a 0^a 0^a 0% | 0^a 0^a 0^a 0% | 10% | 10% | 11% | 9% | 
O=C(OCc1ccccc1)C(O)C(O)C(=O)OCc1ccccc1 (racemic) [Example 11, Dibenzyl-DL-tartrate] | 28% | 25% | 24% | 34% | 56% | 52% | 45% | 80% | 
CCCCC(CC)COC(=O)C(O)C(O)C(=O)OCC(CC)CCCC (racemic) [Example 12, Di(2-ethylhexyl)-DL-tartrate] | 62% | 100% | 27% | 58% | 100 100 100 100% | 100 100 100 100% | 100 100 100 100% | 100 100 100 100% | 
